A mixed list of measured activities; the numbers were collected in NIAID ChemDB.

Common to all: whole-cell or culture tests; species: Aspergillus flavus; read-out: zone

Rows are shuffled and stem from different studies.

{"smiles": "CCCCc1nc(Cl)c(-c2cc(-c3cccs3)nc3c2C(=O)c2ccccc2-3)n1Cc1ccccc1", "method": "agar diffusion", "strain or isolate": "MTCC 8188", "dose": "10 µg/disc", "value": "6 mm"}
{"smiles": "O=c1ccc2cc3c(=O)[nH]c(=S)[nH]c3oc-2c1", "method": "agar diffusion / agar", "dose": "10000 µg/mL", "value": "0 mm"}
{"smiles": "Cc1ccc2nc(Cl)c(CN3CCOCC3)cc2c1", "method": "agar diffusion", "strain or isolate": "MTCC 277", "dose": "200 µg/mL", "value": "5.52 mm"}
{"smiles": "CCCCc1nc(Cl)c(-c2cc(-c3ccc(C)cc3)nc3c2C(=O)c2ccccc2-3)n1Cc1ccccc1", "method": "agar diffusion", "strain or isolate": "MTCC 8188", "dose": "10 µg/disc", "value": "7 mm"}
{"smiles": "Nc1ccc(S(=O)(=O)NNCc2ccc(O)c3ncccc23)cc1", "method": "agar diffusion / agar", "dose": "25 µg/mL", "value": "32 mm"}
{"smiles": "Nc1ccc(S(N)(=O)=O)cc1", "method": "agar", "dose": "25 µg/mL", "value": "22 mm"}
{"smiles": "CCOC(=O)C1=C(N)Sc2[nH]c(=S)[nH]c(=S)c2C1c1ccc(Cl)cc1", "method": "agar diffusion / agar", "dose": "10000 µg/mL", "value": "14 mm"}
{"smiles": "CCCCc1nc(Cl)c(-c2cc(-c3ccc4sc5ccccc5c4c3)nc3c2C(=O)c2ccccc2-3)n1Cc1ccccc1", "method": "agar diffusion", "strain or isolate": "MTCC 8188", "dose": "10 µg/disc", "value": "10 mm"}
{"smiles": "Cc1ccc2nc(Cl)c(CNc3ccc([N+](=O)[O-])cc3)cc2c1", "method": "agar diffusion", "strain or isolate": "MTCC 277", "dose": "200 µg/mL", "value": "8.83 mm"}
{"smiles": "COc1cc(C2C(C#N)=C(N)Oc3[nH]c(=S)[nH]c(=O)c32)cc(OC)c1OC", "method": "agar diffusion / agar", "dose": "10000 µg/mL", "value": "0 mm"}
{"smiles": "Cc1ccc2nc(Cl)c(CNc3ccc(Cl)c(Cl)c3)cc2c1", "method": "agar diffusion", "strain or isolate": "MTCC 277", "dose": "200 µg/mL", "value": "13.93 mm"}
{"smiles": "COC1=CC(=O)C[C@@H](C)[C@]12Oc1c(Cl)c(OC)cc(OC)c1C2=O", "method": "agar diffusion", "dose": "125 µg/disc", "value": "31 mm"}
{"smiles": "Cc1ccc2nc(Cl)c(CN3CCN(C)CC3)cc2c1", "method": "agar diffusion", "strain or isolate": "MTCC 277", "dose": "200 µg/mL", "value": "7.21 mm"}
{"smiles": "CCCCc1nc(Cl)c(-c2cc(-c3ccccc3)nc3c2C(=O)c2ccccc2-3)n1Cc1ccccc1", "method": "agar diffusion", "strain or isolate": "MTCC 8188", "dose": "10 µg/disc", "value": "8 mm"}

The first 2 rows once more:

smiles,method,strain or isolate,dose,value
CCCCc1nc(Cl)c(-c2cc(-c3cccs3)nc3c2C(=O)c2ccccc2-3)n1Cc1ccccc1,agar diffusion,MTCC 8188,10 µg/disc,6 mm
O=c1ccc2cc3c(=O)[nH]c(=S)[nH]c3oc-2c1,agar diffusion / agar,,10000 µg/mL,0 mm

Zones are inhibition diameters on agar. An empty or dashed field is not shown.